Measurements taken from paper PMC3485190, “Crystal Structures of Lysine-Preferred Racemases, the Non-Antibiotic Selectable Markers for Transgenic Plants” (PLoS ONE, 2012).

Columns and labels:
NCCCC[C@H](N)C(=O)O = assay: purified protein; details: 100 mM CHES-NaOH pH 9.0, 30 µM PLP, 50°C
N=C(N)NCCC[C@H](N)C(=O)O = assay: purified protein; details: 100 mM CHES-NaOH pH 9.0, 30 µM PLP, 50°C

Lyr (lysine racemase) (Proteus mirabilis; S394Y/T391Y)
kcat/Km (NCCCC[C@H](N)C(=O)O): 75 M⁻¹ s⁻¹
kcat (N=C(N)NCCC[C@H](N)C(=O)O): 0.383 s⁻¹
